The target in assay [1] is T1, US28 protein from HCMV strain Merlin on HEK Phoenix Ampho cells (Human cytomegalovirus, S330G).
T1 construct: expressed in transfected cells; host or cells: HEK Phoenix Ampho (ATCC-CRL-3213)
Nature of the assay: Flow cytometry, HEK Phoenix Ampho cells transfected with US28 (Merlin). The assay is classed as binding. Conditions: mock subtracted, fold-difference minus 1, sign = increase or decrease. How it is done: (§1) ii. Materials: • Cells: HEK Phoenix Ampho (ATCC-CRL-3213), p 21. • Staining buffer: PBS with 1% BSA, 2 mM EDTA. • Plasmid: Encoding US28 protein from different HCMV strains: DB; TB40/E; Merlin; and VHL/E. • Blocking: Human TruStain FcX™ (ref 422302). • Live Dead: Invitrogen™ eBioscience™ Fixable Viability Dye eFluor™ 780 (ref 13539140). • Primary antibodies: 7B1F3 (6.76 nM=1 μg/ml); hum7B1F3 (6.76 nM=1 μg/ml).
(§2) The day before transfection, HEK Ampho cells were seeded in a 1×6-well plate with 1×10^6 live cells/well, 2 mL/well. Seeded 4 wells for HEKPhoenix_plasmids. Seeded 2 wells for HEKPhoenix_Mock transfected. Incubated the cells in a 37° C. incubator with >80% relative humidity and 5% CO2.
(§3) After 1 day, cells will have adhered and reached >60% confluency. Removed 700 uL media from each well prior to transfection. Allowed X-tremeGENE™ HP DNA Transfection Reagent, DNA and diluent Opti-MEM® I Reduced Serum Medium to warm to +15° C. to +25° C., and vortexed gently. Placed 100 μL diluent in a sterile tube for each condition. Added 1 μg plasmid DNA. Pipetted gently to mix (DNA was not added for the mock condition): • DB (683.3 ng/μL): 1.46 μL • TB40/E (742.05 ng/μL): 1.35 μL • Merlin (70.78 ng/μL): 14.13 μL • VHL/E (51.87 ng/μL): 19.28 μL
(§4) Added 3 μL X-tremeGENE™ HP DNA Transfection Reagent to the diluted DNA. (3:1 ratio of reagent to DNA). Pipetted gently to mix, then: • 1. […]

Assay [2] has as its target T2, US28 protein from HCMV strain DB on HEK Phoenix Ampho cells (Human cytomegalovirus, D170N/D19A).
T2 construct: expressed in transfected cells; host or cells: HEK Phoenix Ampho (ATCC-CRL-3213)
As to the kind of experiment: Flow cytometry, HEK Phoenix Ampho cells transfected with US28 (DB). The assay is classed as binding. The settings on record: mock subtracted, fold-difference minus 1, sign = increase or decrease. How it is done: as §1, §2, §3, §4
A general note: Flow cytometry measures light scatter and fluorescence of single cells or particles in a stream.

B1: 2F5B11-Myc: 2F5B11 labelled with a Myc tag (antibody, V domains shown)
VH: EVQLQESGAELAKPGASVKMSCKASGYTFSSYWIHWIKQRPGQGLEWIGYINPNTAYTEFNQKFMDKATLTADKSSSTAYMQLTSLTSEDSAVYYCARLRSDRTGFAYWGQGTLVTVSA
VL: QIVLTQSPSSLAVSVGEKVTMS[about 80 residues not printed]FGAGTKLEIK
Turning to B1, the “Variation in binding, relative to determined binding to US28 as encoded by VHL/E; Merlin” value in assay [1] is given as “+0.01”.

B2: 4H3C3-Myc: 4H3C3 labelled with a Myc tag (antibody, V domains shown)
VH: QVQLQQSGAELAKPGASVKMSCKASGYTFTSYWMHWVKQRPGQGLEWIGYINPSTGYAEYNQKFKDKATLTADKSSSTAYMQLSSLTSEDSAVYYCARLRFGSSGFAYWGQGTLVTVSS
VL: QIVLTQSPSSLAVSVGEKVTMS[about 80 residues not printed]FGAGTKLEIK
With B2, in assay [2], the “Variation in binding, relative to determined binding to US28 as encoded by VHL/E; DB” value is “+0.59”.

Source of the values: patent publication US20250296984A1, “THERAPEUTIC AND DIAGNOSTIC AGENTS AND USES THEREOF” (priority 2022, published 2025).
